According to article PMC6274284 (Molecules, 2016):
Read-outs that look alike come from different tables or passages of the source.

How the values were obtained:
BrmGRX [1] = target: T1, BrmGRX (Brucella melitensis, UniProt Q8YJA2, C70S); conditions: for CSPs at the zero time-point / Time for the reaction to run to completion: five-fold excess of compound; for Time for the reaction to run to completion: 25 °C
BrmGRX [2] = target: T1, BrmGRX; conditions: 0.5 mM fragment, 10 µM protein, hit: Rel. STD% ≥5% downfield and/or ≥10% upfield; for STD screening result (set of binders / hit class): BrmGRX versus hGRX1; for MaxRel.STD BrmGRX: 6.2 °C
BrmGRX [3] = target: T1, BrmGRX; conditions: for Binding to BrmGRX monitored via 15N-HSQC: ambient temperature, zero NMR time, pH 6.5; for Size of CSPs against BrmGRX (15N-HSQC): RK207 analogs: 2 mM fragment, 0.25 mM 15N BrmGRX; for Binding to BrmGRX at lower pH: pH of 4.5
BrmGRX [4] = target: T1, BrmGRX; conditions: 0.5 mM each fragment in mixture, 10 µM BrmGRX
BrmGRX [5] = target: T1, BrmGRX; conditions: BrmGRX versus hGRX1
BrmGRX [6] = target: T1, BrmGRX; conditions: 4:1 compound to protein, 1.2 mM compound, 0.3 mM GRX, 12% DMSO, 4 days; not completely reproducible

C=CC(=O)NCc1ccn(-c2ccc(C(=O)O)cc2)c1
CSPs at the zero time-point (BrmGRX [1]): many residues that were associated with the unmodified RK207 binding site showed CSPs
Time for the reaction to run to completion (BrmGRX [1]): 168 to 192 h

CC1(C)Cc2cccc(CO)c2O1
STD screening result (set of binders / hit class) (BrmGRX [2]): Non-Hits

COC(=O)c1ccc(-n2ccc(CN)c2)cc1
Binding to BrmGRX monitored via 15N-HSQC (BrmGRX [3]): ineffective

COC(=O)c1ccc(-n2ccnc2)cc1
Binding to BrmGRX monitored via 15N-HSQC (BrmGRX [3]): did not bind

COC(=O)c1scc(C)c1N
STD screening result (set of binders / hit class) (BrmGRX [2]): Non-Hits

Nc1ccc(-n2cncn2)cc1
Size of CSPs against BrmGRX (15N-HSQC) (BrmGRX [3]): weaker CSPs

Nc1ccc(CN2CCS(=O)(=O)CC2)cc1
STD screening result (set of binders / hit class) (BrmGRX [2]): Non-Hits

O=C(O)c1ccc(-n2cccn2)cc1
Binding to BrmGRX at lower pH (BrmGRX [3]): do not bind

O=C(O)c1ccc(-n2ccnc2)cc1
Binding to BrmGRX monitored via 15N-HSQC (BrmGRX [3]): found to bind

O=C(O)c1ccc(-n2cncn2)cc1
Binding to BrmGRX at lower pH (BrmGRX [3]): do not bind

OCc1ccc(-c2ccco2)cc1
trNOE binding result, BrmGRX (BrmGRX [4]): selective for BrmGRX

COC(=O)c1cccc2cc[nH]c12 [RK028]
MaxRel.STD BrmGRX (BrmGRX [2]): 28.3%
STD screening result (set of binders / hit class) (BrmGRX [2]): Non-specific

O=C(O)c1ccc(-c2cnco2)cc1 [RK036]
MaxRel.STD BrmGRX (BrmGRX [2]): 1.3%
STD screening result (set of binders / hit class) (BrmGRX [2]): Non-binders

OCc1cc(-c2cccs2)[nH]n1 [RK126]
MaxRel.STD BrmGRX (BrmGRX [2]): 20.7%
STD screening result (set of binders / hit class) (BrmGRX [2]): Non-specific

Nc1ccccc1N1CCNCC1 [RK155]
trNOE binding result, BrmGRX (BrmGRX [4]): did not bind
STD screening result (set of binders / hit class) (BrmGRX [2]): Non-Hits

O=C(O)c1ccc(-n2cccc2)cc1 [RK207]
Size of CSPs against BrmGRX (15N-HSQC) (BrmGRX [3]): maximum CSPs
Binding to BrmGRX at lower pH (BrmGRX [3]): do not bind
trNOE binding result, BrmGRX (BrmGRX [4]): selective for BrmGRX
MaxRel.STD BrmGRX (BrmGRX [2]): 5.7%
STD screening result (set of binders / hit class) (BrmGRX [2]): BrmGRX selective

Cn1nc(C(=O)O)cc1-c1ccccc1 [RK246]
Selectivity for BrmGRX over hGRX1 on the basis of HSQC-monitored Kd (BrmGRX [5]): no significant selectivity
trNOE binding result, BrmGRX (BrmGRX [4]): selective for BrmGRX
MaxRel.STD BrmGRX (BrmGRX [2]): 20.6%
STD screening result (set of binders / hit class) (BrmGRX [2]; listed as RK 246): BrmGRX Hit

COCc1cc(=O)oc2cc(N)ccc12 [RK411]
MaxRel.STD BrmGRX (BrmGRX [2]): 4.2%
STD screening result (set of binders / hit class) (BrmGRX [2]): hGRX1 selective

Nc1ccc(CN2CCOCC2)cc1 [RK428]
MaxRel.STD BrmGRX (BrmGRX [2]): 0.5%
STD screening result (set of binders / hit class) (BrmGRX [2]): Non-binders

COCc1cc(=O)oc2cc(O)c(Cl)cc12 [RK450]
MaxRel.STD BrmGRX (BrmGRX [2]): 2.7%
STD screening result (set of binders / hit class) (BrmGRX [2]): hGRX1 selective

C=CC(=O)NCc1ccn(-c2ccc(C(=O)OC)cc2)c1 [compound 5, Methyl 4-(3-(Acrylamidomethyl)-1H-pyrrol-1-yl)benzoate]
CSPs at the zero time-point (BrmGRX [1]): no CSPs observed for any residues
Time for the reaction to run to completion (BrmGRX [1]): less than 24 h

acrylamide
Time for the reaction to reach completion (BrmGRX [1]; five-fold excess of unlinked acrylamide, same experimental conditions): more than ten
Inhibition of BrmGRX activity in HED assay (BrmGRX [6]): Little reduction in activity
